# Test results reported in the supplement of paper PMC12637763.
# Some of the results follow. Env chains of viruses from a treatment-interruption trial, translated from the printed DNA. IC50 / IC80 of two broadly neutralizing antibodies; lower = more sensitive virus; >50 µg/ml means not reached and <0.001 µg/ml is below the lowest dose. No active / inactive call.
# B1: HIV-1 Env, reservoir clone (protein)
# chain: MRVMGIRKNWQGLWKWGMMLLGMLMICNATEQLWVTVYYGVPVWKEATTTLFCASDAKSYKTEAHNIWATHACVPTDPNPQEINLINVTENFNMWKNDMVEQMHEDIISLWDQSLKPCVKLTPLCVTLQCTNITITINGTDRNLTAEEREEIRNCSYNVTTELKDKKEQIYSLFYRLDITPINENQGKESRNTITKYRLINCNTSVITQACPKINFDPIPIHYCAPAGFAILKCKDKGFNGTGPCKNVSSVQCTHGIKPVVSTQLLLNGSLAEEEIVIRSENITNNAKNIIVQLVTPVNISCVRPNNNTRKSIRIGPGQSFYANNAIIGDIRQAHCNVSRSEWNNTLQKVVKKLGGLLNKTTIDFKPPSGGDPEIIMHTFNCAGEFFYCNTSGLFNSTWKKFNSTWNTTTWNNNSTQVSNGTDSYITLQCRIKQIINMWQGVGKAMYAPPIEGMITCISNITGLILTRDGGARNGSQNETLRPAGGDMRDNWRSELYKYKVVRLEPLGLAPTKARRRVVEREKRAIGLGALFLGFLGAAGSTMGAASLTLTVQARQLLSGIVQQQNNLLRAIEAQQHLLQLTVWGIKQLQARVLAVENYLKDQQLLGIWGCSGKHICTTNVPWNTSWSNKSLSQIWDNMTWNDWEREINNYTGLIYSLIEESQIQQDKNEKELLELDKWASLWNWFKITKWLWYIKIFIMIVGGLIGLRIIFAVLSVVNRVRQGYSPLSFQTLLPASRGPDRPEGIEEEGGEQGRGRSIRLVNGFSALIWDDLRNLILFLYHRLRDLILIATRTVEILGHRGWEAIKYLWNLLLYWIQELKNSAISLYDTLAIAVAGWTDRIIEVGQRIGRAVFHIPRRIRQGAERALI
# B2: HIV-1 Env, reservoir clone (protein)
# chain: MRVMGIRKNWQGLWKWGMMLLGMLMICNATEQLWVTVYYGVPVWKEATTTLFCASDAKSYKTEAHNIWATHACVPTDPNPQEINLINVTENFNMWKNDMVEQMHEDIISLWDQSLKPCVKLTPLCVTLQCTNITITINGTDRNLTAEEREEIRNCSYNVTTELKDKKEQIYSLFYRLDITPINENQGKESRNTITKYRLINCNTSVITQACPKINFDPIPIHYCAPAGFAILKCKDKGFNGTGPCKNVSSVQCTHGIKPVVSTQLLLNGSLAEEEIVIRSENITNNAKNIIVQLVTPVNISCVRPNNNTRKSIRIGPGQSFYANNAIIGDIRQAHCNVSRSEWNNTLQKVVKKLGGLLNKTTIDFKPPSGGDPEIIMHTFNCAGEFFYCNTSGLFNSTWKKFNSTWNTTTWNNNSTQVSNGTDSNITLQCRIKQIINMWQGVGKAMYAPPIEGMITCISNITGLILARDGGARNDSQNETLRPAGGDMRDNWRSELYKYKVVRLEPLGLAPTKARRRVVEREKRAIGLGALFLGFLGAAGSTMGAASLTLTVQARQLLSGIVQQQNNLLRAIEAQQHLLQLTVWGIKQLQARVLAVENYLKDQQLLGIWGCSGKHICTTNVPWNTSWSNKSLSQIWDNMTWNDWEREINNYTGLIYSLIEESQIQQDKNEKELLELDKWASLWNWFKITKWLWYIKIFIMIVGGLIGLRIIFAVLSVVNRVRQGYSPLSFQTLLPASRGPDRPEGIEEEGGEQGRGRSIRLVNGFSALIWDDLRNLILFLYHRLRDLILIATRTVEILGHRGWEAIKYLWNLLLYWIQELKNSAISLYDTLAIAVAGWTDRIIEVGQRIGRAVFHIPRRIRQGAERALI
# B3: HIV-1 Env, reservoir clone (protein)
# chain: MRVRGIQRNWQHLWTWWTLTLGLVIICSTSDNLWVTVYYGVPVWEDADTPLFCASDAKAYSTEKHNVWATHACVPTDPNPQELHLENVTEEFNMWKNNMVEQMHEDIISLWDEALKPCVKLTPLCVTLNCVSLNCSSVNKNVTNGNNSTECAEERENLRNCSFNVTTELKDKKEQTYALFYKLDVVQLNSGNNNNNTYRLINCNVSAIKQACPKVTFDPIPIHYCAPAGFAILKCNDKNFNGTGQCHNVSTVLCTHGIKPVVSTQLLLNGSLSEDEIVIKSENITDNAKSIIVQLNSTVSITCSRPNNNTRKSIRIGPGQVFYAQGDIIGDIRQAHCNVSRGNWTKVMQEVKGQLQKIFNKNITFNSSTGGDLEITTHSFNCRGEFFYCNTTGLFDDTLFNNNNTNDTSPITLPCKIKQIVRMWQRVGQAMYAPPIAGEITCISNITGLLLTRDGGNTTNASNETFRPGGGNMRDNWRSELYKYKVVKIKPLGVAPTKARRRVVQREKRAVGLGAVFLGFLGTAGSTMGAASITLTVQVRQLLSGIVQQQSNLLRAIEAQQHLLQLTVWGIKQLQARVLAVERYLKDQQLLGIWGCSGKLICTTNVPWNTSWSNKSYNEIWDNMTWMQWDKEVRNYSQQIYDLIQESQTQQEKNEQELLALDKWTSLWSWFDISSWLWYIKIFIMIVGGLIGLRIVFAVLSIVKRVRQGYSPLSFQTLTHHQREPDRPEGIEEGGGEQDKDRSIRLVSGFLPLAWDDVRSLCLFLYHRLRDFILIAARTLELLGRSCLQGLRLGREGLKYLWNLLVYWGQELKNSAINLFDTAAIVVANWTDRVIEIAQGIGRAILNIPRRIRQGLERALL
# B4: HIV-1 Env, reservoir clone (protein)
# chain: MKVKGIRKNYQHLWRWGTMLTMLLGMLMICSAVGNLWVTVYYGVPVWKDASTTLFCASDAKGYETEVHNVWATHACVPTDPSPQELVLKNVTEDFNMWKNNMVEQMQEDIISLWDQSLKPCVQLTPLCVTLNCTNITRGNDTDGTTNGNNTINSDTTGDMKNCSFNISSGIQDRVKKDYAYFYNLDIVQITDDNSSNSYRLINCNTSVITQACPKVSFEPIPIHYCAPAGFAILKCNDKKFNGTGKCKNVSTVQCTHGIKPVVSTQLLLNGSLAEEEVVIRSENFTNNGKNIIVQLKEAVEINCTRVGNNTRKSIHMGPGRAFYANGDIIGNIRLAHCNISKARWNKTLRQIAIKLKEQYNTKTIKFTKSSGGDLEITTHMFNCGGEFFFCNTTQLFNSTWDNSTWNDTGNWNDNTDETITLPCKIKQIINMWQRAGRAMYAPPISGNISCSSNITGLLLTRDGGKNETVSNETVSKEEVFRPGGGDMRDNWRSELYKYKVVKIEPLGVAPTKAKRRVVQREKRAVGLGALFLGFLGAAGSTMGAASITLTAQARQLMSGIVQQQNNLLRAIEAQQHLLQLTVWGIKQLQARVLAVERYLKDQQLLGIWGCSGKLICTTAVPWNTSWSNKSYNEIWDKMTWMQWEREIDNYTGIIYTLIHESQNQQDKNEQELLELDHWASLWNWFDISNWLWYIRLFIMIVGGLVGLRIVFAVLSIVNRIRQGYSPISLQTLLPAQREPDRPGGIEEEGGERDRGRSTRLVHGSLALIWSDLSSLCIFSYHRLRDLLLIAARIVELLGRRGWELLKYWWNLLQYWSQELKNSAVSLLDAVAIAVAEGTDRIIEAAQRAWRRIRQGSERVLL
# B5: HIV-1 Env, reservoir clone (protein)
# chain: MRVMGTQRNYPLFWNWVMIIFWMIIIGNANKLWVTVYYGVPVWKEAETTLFCASDAKAYDTEVHNVWATHACVPTDPDPREIPLENVTEKFNIWKNDMVEQMHQDIISLWDQSLKPCVKLTPLCVTLNCTNATAINATGSIVGNSTDMKNCSFNVTTIRRDKMQKEYALFYNLDIVQIDNSDNSSYRLVSCNTSVITQACPKVSFEPIPIHYCAPAGFAIIKCNNKTFNGTGPCTNVSTVQCTHGIKPVVSTQLLLNGSLAEEKIMIRSENITNNAKTIIVQLKESVTINCTRPGNNTRKSIRIGPGQTYYATGAIIGDIRQAHCNVSKKEWMNTLQKVAKQLGEHFISAQNISFNSSSGGDVEITTHSFICGGEFFYCNTTGLFNSTWIRNNTWTNNDTRIYNESSSNWTGTITLQCRIKQYVNLWQRVGRAMYAPPIRGDINCTSNITGLLLTRDGGGNNESQTFRPIGGDMRDNWRSELYKYKVVKIEPLGVAPTYAKRRVVGREKRAVGLGAVFLGFLGAAGSTMGAASITLTVQARQLLSGIVQQQSNLLKAIEAQQHLLRLTVWGIKQLQARVLALERYLRDQQLLGIWGCSGKLICPTTVPWNSSWSNKTFNEIWDNMTWLQWDKEISNYTETIYALIEQSQNQQEKNEQDLLALDKWANLWNWFDITKWLWYIKIFIMIVGGLIGLRIVFAVFSLVNRVRQGYSPLSFQILNHRQREPDRPGRIEEEGGEQDRDRSVRLVNGFLALAWDDLRSLCLFLYHRLRDSVLIATRGVELLGHSILKGLRLGWEALKHLWNLLSYWSQELKNSAISLLDTIAIAVANWTDRVIELGQAAGRAIRHIPRRIRQGLERALL
# B6: HIV-1 Env, reservoir clone (protein)
# chain: MRVMGTQRNYPLFWNWVMIIFWMIIIGNANKLWVTVYYGVPVWKEAETTLFCASDAKAYDTEVHNVWATHACVPTDPDPREIPLENVTEKFNIWKNDMVEQMHQDIISLWDQSLKPCVKLTPLCVTLNCTNATAINATGSIVGNSTDMKNCSFNVTTIRRDKMQKEYALFYNLDIVQIDNSDNSSYRLVSCNTSVITQACPKVSFEPIPIHYCAPAGFAIIKCNNKTFNGTGPCTNVSTVQCTHGIKPVVSTQLLLNGSLAEEKIMIRSENITNSAKTIIVQLKESVTINCTRPGNNTRKSIRIGPGQTYYATGAIIGDIRQAHCNVSKKEWMNTLQKVAKQLGEHFISAQNISFNSSSGGDVEITTHSFICGGEFFYCNTTGLFNSTWIRNNTWTNNDTRIYNESSSNWTGTITLQCRIKQYVNLWQRVGRAMYAPPIRGDINCTSNITGLLLTRDGGGNNESETFRPIGGDMRDNWRSELYKYKVVKIEPLGVAPTYAKRRVVGREKRAVGLGAVFLGFLGAAGSTMGAASITLTVQARQLLSGIVQQQSNLLKAIEAQQHLLRLTVWGIKQLQARVLALERYLRDQQLLGIWGCSGKLICPTTVPWNSSWSNKTFNEIWDNMTWLQWDKEISNYTETIYALIEQSQNQQEKNEQDLLALDKWANLWNWFDITKWLWYIKIFIMIVGGLIGLRIVFAVFSLVNRVRQGYSPLSFQILNHRQREPDRPGRIEEEGGEQDRDRSVRLVSGFLALAWDDLRSLCLFLYHRLRDSVLIATRGVELLGHSILKGLRLGWEALKHLWNLLSYWSQELKNSAISLLDTIAIAVANWTDRVIELGQAAGRAIRHIPRRIRQGLERALL
# Target: antibody 10-1074
# Assay: neutralization IC50; higher = virus less sensitive to the antibody
# Description: (§1)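 Pseudovirus bearing the Env chain mixed with antibody, from 50 µg/ml in fivefold dilutions, on TZM-bl reporter cells, in duplicate.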
row,Binder,neutralization IC50
1,B1,0.041 µg/mL
2,B2,0.036 µg/mL
3,B3,0.019 µg/mL
4,B4,1.26 µg/mL
5,B5,0.02 µg/mL
6,B6,0.024 µg/mL

# Target: antibody 3BNC117
# Assay: as above
# Description: as §1
row,Binder,neutralization IC50
1,B1,0.161 µg/mL
2,B2,0.341 µg/mL
3,B3,0.626 µg/mL
4,B4,0.202 µg/mL
5,B5,0.262 µg/mL
6,B6,12.9 µg/mL

# Target: antibody 10-1074
# Assay: neutralization IC80; higher = virus less sensitive to the antibody
# Description: as §1
row,Binder,neutralization IC80
1,B1,0.116 µg/mL
2,B2,0.116 µg/mL
3,B3,0.058 µg/mL
4,B4,19.9 µg/mL
5,B5,0.066 µg/mL
6,B6,0.069 µg/mL

# Target: antibody 3BNC117
# Assay: as above
# Description: as §1
row,Binder,neutralization IC80
1,B1,0.443 µg/mL
2,B2,1.25 µg/mL
3,B3,1.58 µg/mL
4,B4,0.552 µg/mL
5,B5,0.989 µg/mL
6,B6,> 50 µg/mL
